From patent US20110015130, “Polypeptides Selective for alphavbeta3 Integrin Conjugated With a Variant Of Human Serum Albumin (HSA) And Pharmaceutical Uses Thereof” (published 2011)

Key:
[1] = biological target: integrin αvβ3 on Chinese hamster ovary cells (CHO-αvβ3), not stated, P06756 31-1048; P05106 27-788; assay: cell adhesion inhibition, CHO-αvβ3 cells on coated matrix protein
[2] = biological target: platelet glycoprotein αllbβ3 (human platelets in platelet-rich plasma), human, P08514 32-1039; P05106 27-788; assay: cell-based or functional assay
[3] = biological target: integrin αllbβ3 on Chinese hamster ovary cells (CHO-αllbβ3), not stated, P08514 32-1039; P05106 27-788; assay: cell adhesion inhibition, CHO-αllbβ3 cells on coated matrix protein
[4] = biological target: integrin α5β1 (human erythroleukemia K562 cells), human, P08648 42-1049; P05556 21-798; assay: cell adhesion inhibition, K562 cells on coated matrix protein

| Substance | IC50 [1] [µM] | Platelet aggregation IC50 (ADP-induced, human platelet-rich plasma) [2] [µM] | IC50 [3] [µM] | IC50 [4] [µM] |
| --- | --- | --- | --- | --- |
| pegylated-ARLDDL | 0.115 | 13.2 | 15.7 |  |
| HSA-ARLDDL (human albumin-conjugated product of ARLDDL protein) |  | 11.2 | 12.3 |  |
| HSA(C34S)-ARLDDL fusion protein |  | 11 | 11.4 |  |
| ARLDDL (rhodostomin variant having an RGD motif variant 48ARLDDL53) | 0.048 |  | 23.2 | 6.42 |
